Data as given in patent publication US20190002429A1, “Derivatives of Xanthone Compounds” (Agency for Science, Technology and Research, priority 2011, published 2019).

Test system: Mycobacterium tuberculosis
Settings: HC50 / MIC100 against M. tuberculosis

## COc1c(O)cc2oc3cc(OCC(=O)O)c(CC=C(C)C)c(O)c3c(=O)c2c1CC=C(C)C [AM-071]
  Selectivity index: 0.28
